Results of unrelated studies side by side (data: NIAID ChemDB).

All rows: tests in culture; species: Mycobacterium fortuitum; read-out: MIC

An empty or dashed field is not shown. Rows are shuffled and stem from different studies.

compound | setting | method | strain | value
CO[C@@]1(NC(=O)Cn2cnnn2)C(=O)N2C(C(=O)O)=C(CSc3nnc(C)s3)CSC21 | - | - | 1260 | 50 µg/mL
CCCCCCCC/C=N/NC(=O)c1cnc2cc(F)ccc2c1NC(CSc1ccccc1)CC(=O)N(C)C | - | resazurin | ATCC 19542 | 5 µg/mL
CO[C@@]1(NC(=O)Cc2ccccc2)C(=O)N2C(C(=O)O)=C(COC(C)=O)CSC21 | - | - | 1045 | >100 µg/mL
C[C@@H]([C@H](NC(=O)[C@H](CC1CCCCC1)NC(=O)N[C@@H](Cc1c[nH]c2ccccc12)C(=O)NCC(C)(C)C)C(=O)NC[C@H]1C[C@@H](O)[C@H](n2ccc(=O)[nH]c2=O)O1)N(C)C(=O)CN | - | resazurin / fluorescence | PN | 0.704 µM
CO[C@@]1(NC(=O)Cc2ccccc2)C(=O)N2C(C(=O)[O-])=C(CSc3nnc(C)s3)CSC21 | - | - | 1059 | >100 µg/mL
C[C@@H]([C@H](NC(=O)[C@H](Cc1ccc2ccccc2c1)NC(=O)N[C@@H](Cc1c[nH]c2ccccc12)C(=O)NCC(C)(C)C)C(=O)NC[C@H]1C[C@@H](O)[C@H](n2ccc(=O)[nH]c2=O)O1)N(C)C(=O)CN | - | resazurin / fluorescence | rA17 | 0.8 µM
Nc1nc(N)c2c(n1)NC(c1ccc3c(c1)OCO3)CC(c1ccc(Cl)cc1)=N2 | clinical isolate | MTT / broth dilution / absorbance | MNT1073 | >32 µg/mL
S=C=NCCCCCCN=C=S | - | visual reading | - | 16 µg/mL
COc1ccc(/C=N/NC(=O)c2cnc3cccc(C(F)(F)F)c3c2NC(CSc2ccccc2)CC(=O)N(C)C)c(F)c1 | - | resazurin | ATCC 19542 | >100 µg/mL
NNC(=O)c1ccncc1 | clinical isolate | MTT / broth dilution / absorbance | MNT1073 | >0.5 µg/mL
CSCCC/C=N/NC(=O)c1cnc2cccc(C(F)(F)F)c2c1NC(CSc1ccccc1)CC(=O)N(C)C | - | resazurin | ATCC 19542 | >100 µg/mL
CC(C)N=c1cc2n(-c3ccc(Cl)cc3)c3ccccc3nc-2cc1Nc1ccc(Cl)cc1 | - | - | 9738 | 33.3 µg/mL
O=C(O)c1ccc(N2C(=O)C(C(=O)C(F)(F)F)C(=O)N(c3ccc(S(=O)(=O)Nc4ncccn4)cc3)C2=S)cc1O | - | broth dilution | ATCC 6841 | >128 µg/mL
C[C@H]1[C@H](C)CC[C@]2(C(=O)O)CC[C@]3(C)C(CC[C@@H]4[C@@]5(C)C[C@H](O)CC(C)(C)[C@@H]5CC[C@]43C)[C@H]12 | - | resazurin | - | 100 µg/mL
Cc1c(N2C(=O)CC(=O)N(c3ccc(C(=O)O)c(O)c3)C2=S)c(=O)n(-c2ccccc2)n1C | - | broth dilution | ATCC 6841 | 64 µg/mL
CSc1ccccc1/C=N/NC(=O)c1cnc2cccc(C(F)(F)F)c2c1NC(CSc1ccccc1)CC(=O)N(C)C | - | resazurin | ATCC 19542 | >100 µg/mL
Cc1ccnc(NS(=O)(=O)c2ccc(NC(=S)Nc3ccc(C(=O)O)c(O)c3)cc2)n1 | - | broth dilution | ATCC 6841 | 64 µg/mL
CSc1nc(N)c2c(n1)NC(c1ccc(C(F)(F)F)cc1)CC(c1ccc3c(c1)OCO3)=N2 | clinical isolate | MTT / broth dilution / absorbance | MNT1073 | >32 µg/mL
CO[C@@]1(NC(=O)CCCC(N)C(=O)O)C(=O)N2C(C(=O)O)=C(COC(C)=O)CSC21 | - | - | 1030-8 | >100 µg/mL
CN(C)C(=O)CC(CSc1ccccc1)Nc1c(C(=O)N/N=C/c2ccc(F)cc2)cnc2cccc(C(F)(F)F)c12 | - | resazurin | ATCC 19542 | 10 µg/mL
O=C(NNC(=S)Nc1ccc(C(=O)O)c(O)c1)c1ccncc1 | - | broth dilution | ATCC 6841 | >128 µg/mL
COc1ccc(C2=Nc3c(N)nc(N)nc3NC(c3ccc4c(c3)OCO4)C2)cc1 | clinical isolate | MTT / broth dilution / absorbance | MNT1073 | >32 µg/mL
COc1ccc(/C=N/NC(=O)c2cnc3cc(F)ccc3c2NC(CSc2ccccc2)CC(=O)N(C)C)cc1O | - | resazurin | ATCC 19542 | 5 µg/mL
O=C(O)c1ccc(NC(=O)C(F)(F)F)cc1O | - | broth dilution | ATCC 6841 | >128 µg/mL
CO[C@@]1(NC(=O)C2SC(=C(C(N)=O)C(=O)[O-])S2)C(=O)N2C(C(=O)[O-])=C(CSc3nnnn3C)CS[C@@H]21 | - | - | 1263 | 50 µg/mL
CN(C)C(=O)CC(CSc1ccccc1)Nc1c(C(=O)N/N=C/c2ccc(Br)s2)cnc2cccc(C(F)(F)F)c12 | - | resazurin | ATCC 19542 | >100 µg/mL

Repeating the first 2 entries:

{"compound": "CO[C@@]1(NC(=O)Cn2cnnn2)C(=O)N2C(C(=O)O)=C(CSc3nnc(C)s3)CSC21", "strain": "1260", "value": "50 µg/mL"}
{"compound": "CCCCCCCC/C=N/NC(=O)c1cnc2cc(F)ccc2c1NC(CSc1ccccc1)CC(=O)N(C)C", "method": "resazurin", "strain": "ATCC 19542", "value": "5 µg/mL"}